Reference: PMC4482062 (Nucleic Acids Research, 2015)
Several values for one entry are separate records, joined by “and”; a condition that tells them apart may be missing. Identical values can stand only once.

Experiment: Measurement of cellular concentration of Cx-SAM (LC-MS isotope ratio)
Design: species or system E. coli K-12
Settings: LC-MS isotopic ratio-based method, cells grown in LB

Nc1ncnc2c1ncn2[C@@H]1O[C@H](C[S+](CC[C@H](N)C(=O)[O-])CC(=O)O)[C@@H](O)[C@H]1O (stereo partly drawn) [Cx-SAM, carboxy-S-adenosine-L-methionine]
in vivo concentration in E. coli K-12: 0.5 ± 0.1 µM and 0.5 µM
